Compound potency records, mixed from different reports. Data source: NIAID ChemDB in PubChem.

Common to all: whole-cell or culture tests; species: Mycobacterium tuberculosis

ECn: concentration that inhibits the pathogen or its effect by n%. Inhibition is in % at the dose shown (toxicity tests: loss of growth or viability). MIC50, MIC90 and the like: level of inhibition, or share of isolates inhibited. Fold resistance has wild type as its base. An empty or dashed field is not shown. MIC bound: limit read from a one-dose screen. Conditions beyond the fields shown may differ between rows.

structure | method | endpoint | tested at | strain or isolate | mutations | cells | result
Cc1cc(C)cc(OCCCON2C(N)=NC(N)=NC2(C)C)c1 | resazurin / fluorescence | MIC90 |  | H37Rv | Overexpressing DHFR |  | 15.6 µM
COc1cc(/C=N/N=C(\N)c2ccncc2)cc(OC)c1 |  | MIC |  | 1054 |  |  | 256 µg/mL
O=c1cc2[nH]c3ccccc3c(=O)n2[nH]1 |  | inhibition | 6.25 µg/mL | H37Rv |  |  | 0%
CCSc1nc(C(N)=O)cnc1CC(C)C |  | inhibition | 12.5 µg/mL | H37Rv |  |  | <90%
N/C(=N\N=C\c1ccc(Cl)c(Cl)c1)c1ccncc1 |  | MIC |  | 1481 |  |  | 256 µg/mL
O=C(NN1C(=O)CS(=O)(=O)C1c1ccc(C(F)(F)F)cc1)c1ccncc1 | visual reading / absorbance | MIC |  |  | KatG G285V |  | 50 µM
Cc1[nH]n(-c2ccccc2)c(=O)c1N=Nc1ccc(-c2n[nH]c(=O)n2-c2ccccc2)cc1 |  | MIC |  | H37Rv |  |  | >12.5 µg/mL
CCCSc1nc(C(N)=S)cnc1CC(C)C |  | MIC |  | H37Rv |  |  | >6.25 µg/mL
N/C(=N\N=C\c1ccccc1Cl)c1ccncc1 |  | MIC |  | 1342 |  |  | 16 µg/mL
CCCCSc1nc(C(N)=O)cnc1CC(C)C |  | inhibition | 12.5 µg/mL | H37Rv |  |  | <90%
CC[C@H]1OC(=O)[C@H](C)[C@@H](O[C@H]2C[C@@](C)(OC)[C@@H](O)[C@H](C)O2)[C@H](C)[C@@H](O[C@@H]2O[C@H](C)C[C@H](N(C)C)[C@H]2O)[C@](C)(OC)C[C@@H](C)C(=O)[C@H](C)[C@@H](O)[C@]1(C)O |  | MIC |  | 90-0240 (drug-susceptible) |  |  | 4 µg/mL
CCn1c(-c2ccc(N=Nc3c(C)[nH]n(-c4ccccc4)c3=O)cc2)n[nH]c1=S |  | inhibition | 12.5 µg/mL | H37Rv |  |  | 73%
O=C(O)c1cn(C2CC2)c2cc(N3CCN(C/C(=N/O)c4ccc(F)cc4)CC3)c(F)cc2c1=O |  | inhibition | 6.25 µg/mL | H37Rv |  | VERO | 98%
NC[C@H]1O[C@H](O[C@H]2[C@H](O)[C@@H](O[C@H]3O[C@H](CO)[C@@H](O)[C@H](N)[C@H]3O)[C@H](N)C[C@@H]2N)[C@H](O)[C@@H](O)[C@@H]1O |  | MIC |  | 90-0216 (drug-susceptible) |  |  | 2 µg/mL
Cc1cc(C2=NNC(c3ccc(Cl)cc3)C2)ccc1O |  | MIC |  | H37Rv |  |  | >6.25 µg/mL
CCn1cc(C(=O)O)c(=O)c2cc(F)c(N3CCN(C/C(=N/O)c4ccc(Br)cc4)CC3)nc21 |  | inhibition | 6.25 µg/mL | H37Rv |  |  | 49%
CCCCC/C(CC1NC(=S)NC1=O)=N\NC(=O)c1ccncc1 | visual reading / absorbance | MIC |  |  | KatG S315T |  | 25 µM
CCn1cc(C(=O)O)c(=O)c2cc(F)c(N3CCN(C/C(=N/O)c4ccc(F)cc4)CC3)nc21 |  | inhibition | 6.25 µg/mL | H37Rv |  |  | 0%
C[C@H]1COc2c(N3CCN(C)CC3)c(F)cc3c(=O)c(C(=O)O)cn1c23 |  | MIC |  | 2923-5 |  |  | 0.5 µg/mL
C/C=C1/C(=O)O[C@]23C=C[C@@H]4C(C(=O)OC)=CO[C@H](O[C@@H]12)[C@@H]43 | MTT | MBC |  | MDR2 clinical isolate |  |  | 3.8 µg/mL
Cc1cc(C2=NNC(c3ccco3)C2)ccc1O |  | inhibition | 6.25 µg/mL | H37Rv |  |  | 90%
O=C1C(Cl)=C(Nc2nccs2)C(=O)c2ccccc21 | BACTEC | inhibition | 12.5 µg/mL | H37Rv |  |  | 29%
CCCSc1nc(C(N)=O)cnc1CC(C)C |  | inhibition | 12.5 µg/mL | H37Rv |  |  | <90%
C=CCn1c(-c2ccc(N=Nc3c(C)[nH]n(CCO)c3=O)cc2)n[nH]c1=S |  | MIC |  | H37Rv |  |  | >12.5 µg/mL
CC1(C)S[C@@H]2[C@H](NC(=O)[C@H](N)c3ccccc3)C(=O)N2[C@H]1C(=O)O |  | MIC |  | WLM |  |  | >92 µM
CC1(C)N=C(N)N=C(N)N1OCCSCc1cc(Cl)sc1Cl | resazurin / fluorescence | MIC90 |  | H37Rv | Overexpressing DHFR |  | >2 µM
Cc1ccc(NP2(Nc3ccc(C)cc3)=NP(Nc3ccc(C)cc3)(N3CC3)=NP(Nc3ccc(C)cc3)(N3CC3)=N2)cc1 |  | MIC |  | H37Rv |  |  | 2 µg/mL
Cc1cc(C2=NNC(c3cccc([N+](=O)[O-])c3)C2)ccc1O |  | MIC |  | H37Rv |  |  | >6.25 µg/mL
NNC(=O)c1ccncc1 | visual reading / absorbance | MIC |  | H37Rv | KatG *741R |  | 0.1 µM
CC1=C2C(=CO[C@H](C)[C@H]2C)C(=O)C(C(=O)O)=C1O |  | inhibition | 100 µg/mL | H37Rv |  |  | 95%
CCCc1ncc(C(N)=O)nc1Sc1ccccc1 |  | inhibition | 12.5 µg/mL | H37Rv |  |  | <90%
CC(C)(C)c1ccccc1OCCCON1C(N)=NC(N)=NC1(C)C | resazurin / fluorescence | MIC90 |  | H37Rv | Overexpressing DHFR |  | 2 µM
Cc1cc(=O)n(-c2ccccc2)c(=S)n1-c1nc2ccccc2[nH]1 | resazurin | MIC bound |  | H37Rv |  |  | >6.25 µg/mL
C[C@H]1[C@H](C)CC[C@]2(C(=O)O)CC[C@]3(C)C(CC[C@@H]4[C@@]5(C)C[C@H](O)CC(C)(C)[C@@H]5CC[C@]43C)[C@H]12 | resazurin | MIC |  | RIF-R (ATCC 35838) |  |  | 25 µg/mL
COc1ccc(OC)c(/C=N/N=C(\N)c2ccncc2)c1 |  | MIC |  | 1342 |  |  | 256 µg/mL
NNC(=O)c1ccncc1 |  | MIC |  | MDR-1 (MDR) |  |  | 12.8 µg/mL
CC[C@@H](CO)NCCN[C@@H](CC)CO |  | MIC |  | H37Rv |  |  | 0.5 µg/mL
O=C1CCCCCCC/C=C\CCCCCCO1 | BACTEC | MIC bound |  | H37Rv |  |  | >12.5 µg/mL
O=C(CN1CCN(c2cc3c(cc2F)c(=O)c(C(=O)O)cn3C2CC2)CC1)c1ccccc1 |  | EC50 |  | H37Rv |  | VERO | <6.25 µg/mL
O=C(NNCCO)C(O)C(O)C(O)C(O)CO | BACTEC | inhibition | 12.5 µg/mL | H37Rv |  |  | 0%
CCCCSc1nc(C(N)=O)cnc1CCCC |  | inhibition | 12.5 µg/mL | H37Rv |  |  | 79%
NNC(=O)c1ccncc1 |  | MIC50 |  | 188 strains |  |  | 0.06 µg/mL
COc1ccc(-c2nc3c(N)nc(N)nc3nc2C(C)C)cc1 | resazurin / fluorescence | MIC90 |  | H37Rv | Overexpressing DHFR |  | 250 µM
C=C(C)C1CC=C(C)/C(=N/NC(=O)c2cccnc2)C1 | visual reading / absorbance | MIC |  | H37Rv | KatG S315R |  | 50 µM
Cc1cc2cc3c(=O)[nH]c(=O)cc-3n(CC(O)C(O)C(O)CO)c2cc1C | BACTEC | MIC bound |  | H37Rv |  |  | ≤12.5 µg/mL
N#CC1=C([N+](=O)[O-])NC2OC[C@@H](OCc3ccc(OC(F)(F)F)cc3)CN12 | broth dilution | MIC |  | Ddn- |  |  | >100 µM
COc1cc(/C=N/N=C(\N)c2ccncc2)cc(OC)c1OC |  | MIC |  | H37Rv |  |  | >256 µg/mL
CCc1cc(C(N)=S)ccn1 |  | MIC |  | 92-0492 MDR (INH RIF-resistant) |  |  | 0.25 µg/mL
CCOC(=O)N1N=C(c2ccccc2)OC2(N3CCCC3)CCC(C(C)(C)C)CC12 | BACTEC | inhibition | 12.5 µg/mL | H37Rv |  |  | 1%
N#Cc1ccc(/C=N/N=C(\N)c2ccncc2)cc1 |  | MIC |  | 1054 |  |  | >256 µg/mL
CCCSc1nc(C(N)=S)cnc1CCC |  | MIC |  | H37Rv |  |  | >12.5 µg/mL
CCOC(=O)/C(N=Nc1ccc(C(=O)N/N=C\c2ccc(F)cc2)cc1)=C(\C)O |  | MIC |  | H37Rv |  |  | >12.5 µg/mL
CN1CCN(C2=NS(=O)(=O)c3cc(Cl)ccc3N2)CC1 | resazurin | inhibition | 6.25 µg/mL | H37Rv |  |  | 6%
C/C=C(/C)C(=O)OC1CC(C)(C)CC2C3=CCC4C5(C)CC[C@H](OC(C)=O)C(C)(C)C5CC[C@@]4(C)[C@]3(C)CC[C@@]12C(=O)O |  | MIC |  | H37Rv (ethambutol-resistant) |  |  | 50 µg/mL
O=c1cc(-c2ccccc2)[nH]c2[nH]n(-c3ccccc3)c(=O)c12 | BACTEC | MIC |  | H37Rv |  |  | ≥12.5 µg/mL
Cc1[nH][nH]c(=O)c1N=Nc1ccc(-c2n[nH]c(=O)n2-c2ccccc2)cc1 |  | EC50 |  | H37Rv |  |  | >12.5 µg/mL
COc1cc(N=Nc2cc(S(=O)(=O)[O-])c3cccnc3c2O)ccc1-c1ccc(N=Nc2cc(S(=O)(=O)[O-])c3cccnc3c2O)cc1OC.[Na+].[Na+] | BACTEC | inhibition | 12.5 µg/mL | H37Rv |  |  | 0%
Cc1cc(C2=NNC(c3c(Cl)cccc3Cl)C2)ccc1O |  | MIC |  | H37Rv |  |  | >6.25 µg/mL
CC1COc2c(N3CCN(C)CC3)c(F)cc3c(=O)c(C(=O)O)cn1c23 |  | MIC |  | 90-0201 (drug-susceptible) |  |  | 0.5 µg/mL
OC[C@H]1N[C@H](CO[C@@H]2O[C@H](CO)[C@@H](O)[C@H](O)[C@H]2O)[C@H](O)[C@@H](O)[C@@H]1O | BACTEC | MIC |  | H37Rv |  |  | ≥12.5 µg/mL
CC[C@H]1OC(=O)[C@H](C)[C@@H](O[C@H]2C[C@@](C)(OC)[C@@H](O)[C@H](C)O2)[C@H](C)[C@@H](O[C@@H]2O[C@H](C)C[C@H](N(C)C)[C@H]2O)[C@](C)(OC)C[C@@H](C)C(=O)[C@H](C)[C@@H](O)[C@]1(C)O |  | MIC |  | S-2M (susceptible) |  |  | >8 µg/mL
CCN(CC)CCCCCNc1cc(Cl)c(Cl)cc1[N+](=O)[O-] | BACTEC | inhibition | 6.25 µg/mL | H37Rv |  |  | 15%
C[C@@H]1Cn2cc(C(=O)O)c(=O)c3cc(F)c(N4CCN(/C(N)=N/C(N)=NCCCCCCN=C(N)/N=C(\N)N5CCN(c6c(F)cc7c(=O)c(C(=O)O)cn8c7c6O[C@@H](C)C8)CC5)CC4)c(c32)O1 | broth dilution | MIC |  | ATCC 35837 |  |  | 1.25 µg/mL
CCc1ccc([C@H]2C[C@@H](C(F)(F)F)n3ncc(C(=O)NCc4ccc5c(c4)OCO5)c3N2)cc1 | fluorescence | fold resistance |  | H37Rv | MmpL3: Tyr252Cys |  | 3.8
O=C(Nc1ncc([N+](=O)[O-])s1)c1cccnc1 |  | MIC |  | ETA-R |  |  | 12.5 µg/mL
CCCCc1ncc(C(N)=S)nc1SCC |  | MIC |  | H37Rv |  |  | >12.5 µg/mL
O=C(N/N=C(\c1nc2ccc([N+](=O)[O-])cc2[nH]c1=O)C(O)c1ccc([N+](=O)[O-])cc1)c1ccncc1 | visual reading / absorbance | MIC |  | H37Rv | KatG S315R |  | 50 µM
COC(=O)C(=O)C(C(=O)C1=NS(=O)(O)=c2cc(S(N)(=O)=O)c(Cl)cc2=N1)c1nc2ccc(C(=O)c3ccccc3)cc2[nH]c1=O | BACTEC | MIC |  | H37Rv |  | VERO | 12.5 µg/mL
CCCSc1nc(C(N)=O)cnc1CCC |  | MIC |  | H37Rv |  |  | >12.5 µg/mL
CC[C@]12CN3CCc4c([nH]c5ccccc45)[C@@](C(=O)OC)(c4cc5c(cc4OC)N(C)[C@H]4[C@@](O)(C(=O)OC)[C@H](OC(C)=O)[C@]6(CC)C=CCN7CC[C@]54[C@@H]76)C[C@H](C3)[C@H]1O2 | BACTEC | MIC bound |  | H37Rv |  |  | >12.5 µg/mL
COc1cccc(/C=N/N=C(\N)c2ccncc2)c1OC |  | MIC |  | 1342 |  |  | 256 µg/mL
Cc1[nH][nH]c(=O)c1N=Nc1ccc(C(=O)N/N=C/c2ccc(F)cc2)cc1 |  | MIC |  | H37Rv |  |  | >12.5 µg/mL
Nc1nc(-c2ccccc2)c(-c2ccccc2)nc1C(=O)NCc1ccccc1 | BACTEC | inhibition | 12.5 µg/mL | H37Rv |  |  | 18%
CC(=O)NC[C@H]1CN(c2ccc(N3CCOCC3)c(F)c2)C(=O)O1 |  | MIC90 |  | 10 isolates (isoniazid rifampin-resistant) |  |  | 0.5 µg/mL
O=C(CN1CCN(c2cc3c(cc2F)c(=O)c(C(=O)O)cn3C2CC2)CC1)c1ccc(Br)cc1 |  | MIC |  | H37Rv |  | VERO | 0.78 µg/mL
CC1CN1P1(N2CC2C)=NP(N2CC2C)(N2CC2C)=NP(N2CC2C)(N2CC2C)=N1 | BACTEC | MIC |  | H37Rv |  |  | ≥128 µg/mL
C=CCn1c(-c2ccc(N=N/C(C(=O)OCC)=C(/C)O)cc2)n[nH]c1=S |  | MIC |  | H37Rv |  |  | >12.5 µg/mL
O=C1C2=C(Nc3cc([N+](=O)[O-])ccc3N2)OC1c1ccc(Cl)cc1Cl | BACTEC | inhibition | 12.5 µg/mL | H37Rv |  |  | -15%
Cc1ccccc1OCCCON1C(N)=NC(N)=NC1(C)C | resazurin / fluorescence | MIC90 |  | H37Rv | Overexpressing DHFR |  | 15.6 µM
CC1(C)Nc2cccc3c(N=Nc4ccc(N=Nc5ccccc5)c5ccccc45)ccc(c23)N1 |  | MIC |  | PZA-R |  |  | 1 µg/mL
N/C(=N\N=C\c1ccccc1)c1ccncc1 |  | MIC |  | 1342 |  |  | 32 µg/mL

A second listing of 4 rows from above:

{"structure": "C=CCn1c(-c2ccc(N=Nc3c(C)[nH]n(CCO)c3=O)cc2)n[nH]c1=S", "endpoint": "MIC", "strain or isolate": "H37Rv", "result": ">12.5 µg/mL"}
{"structure": "Nc1nc(-c2ccccc2)c(-c2ccccc2)nc1C(=O)NCc1ccccc1", "method": "BACTEC", "endpoint": "inhibition", "tested at": "12.5 µg/mL", "strain or isolate": "H37Rv", "result": "18%"}
{"structure": "CCn1cc(C(=O)O)c(=O)c2cc(F)c(N3CCN(C/C(=N/O)c4ccc(F)cc4)CC3)nc21", "endpoint": "inhibition", "tested at": "6.25 µg/mL", "strain or isolate": "H37Rv", "result": "0%"}
{"structure": "CCN(CC)CCCCCNc1cc(Cl)c(Cl)cc1[N+](=O)[O-]", "method": "BACTEC", "endpoint": "inhibition", "tested at": "6.25 µg/mL", "strain or isolate": "H37Rv", "result": "15%"}